Compound potency records, mixed from different reports. Data source: NIAID ChemDB in PubChem.

Common to all: growth or infection tests; organism: Mycobacterium tuberculosis

Inhibition is in % at the dose shown (toxicity tests: loss of growth or viability). Conditions beyond the fields shown may differ between rows. ECn: concentration that inhibits the pathogen or its effect by n%. Blank or dashed fields: not listed here. MIC bound comes from a single tested concentration.

SMILES | conditions | changes | dose | endpoint | read by | strain | result
COc1c2c(c(OC)c3ccccc13)CN(c1ccc([N+](=O)[O-])cc1)C(=N)C2 |  | Lux |  | MIC | luminescence | H37Rv | 15.75 µM
Cc1ccc(C(=O)/C=C/c2ccccc2)cc1 | 7 d |  |  | MIC | resazurin | H37Rv | 32 µg/mL
COc1cccc2c1OC1(C=C2)Oc2ccccc2C(=O)N1C |  |  | 6.25 µg/mL | inhibition | resazurin | H37Rv | 29%
Cc1ccc(-c2nc(NCCO)[nH]c(=O)c2C#N)cc1 |  |  |  | MIC |  | H37Ra | >50 µg/mL
COc1c2c(c(OC)c3ccccc13)CN(c1ccc(C)cc1Br)C(=N)C2 |  | Lux |  | MIC | luminescence | H37Rv | 10.84 µM
CCN(CC)Cc1c2c(O)c3c(O)c(C)c4c(c3c1O)C(=O)[C@@](C)(O/C=C/[C@H](OC)[C@@H](C)[C@@H](OC(C)=O)[C@H](C)[C@H](O)[C@H](C)[C@@H](O)[C@@H](C)/C=C/C=C(/C)C(=O)N2)O4 |  |  |  | MIC |  | H37Rv | 0.2 µg/mL
NNC(=O)c1ccncc1 |  | Lux |  | MIC | luminescence | H37Rv | 0.13 µM
CN(C)c1ccc(-c2nc(N3CCc4ccccc4C3)[nH]c(=O)c2C#N)cc1 |  |  |  | MIC |  | H37Ra | >50 µg/mL
COC(=O)C12CC3(C)OC1(C)OC(=O)C2(Cc1ccccc1)N3C(C)=O |  |  |  | MIC bound | BACTEC | H37Rv | >12.5 µg/mL
CN(C)c1ccc(-c2nc(Nc3ccc(F)cc3)[nH]c(=O)c2C#N)cc1 |  |  |  | MIC |  | H37Ra | >50 µg/mL
Cc1cc(-c2cc3c(cc2F)c(=O)c(C(=O)O)cn3C2CC2)cc(C)n1 |  |  |  | MIC |  | 131-4 | 2 µg/mL
CCCCNc1nc(-c2ccc(N(C)C)cc2)c(C#N)c(=O)[nH]1 |  |  |  | MIC |  | H37Ra | >50 µg/mL
O=C(O)c1cc(-n2c(-c3ccccc3)cc3c2CCc2ccccc2-3)ccc1O |  |  |  | MIC bound | resazurin | H37Rv | >6.25 µg/mL
CCCCCCCN1C(=O)c2ccnnc2Oc2cc(C)ccc21 |  |  |  | EC50 | BACTEC | H37Rv | >12.5 µg/mL
CCOC(=O)NC1C2CC(=O)C(O2)C1OCc1ccccc1 |  |  |  | MIC bound | BACTEC | H37Rv | >12.5 µg/mL
N=c1cc2c(cn1-c1ccc(Br)cc1)C(=O)c1ccccc1C2=O |  | Lux |  | MIC | luminescence | H37Rv | 0.65 µM
O=C(NCC(=O)N1CCN(c2ccc(N3C[C@H](Cn4ccnn4)OC3=O)cc2F)CC1)c1cc([N+](=O)[O-])cc([N+](=O)[O-])c1 |  |  |  | MIC | visual reading | H37Rv | ≤0.11 µM
Cc1ccc(C(=O)/C=C/c2ccccc2)c(F)c1 | 7 d |  |  | MIC | resazurin | H37Rv | 16 µg/mL
N/C(=N/N=C/c1ccc(Br)cc1)c1ccccn1 |  |  |  | MIC |  | H37Rv | 16 µg/mL
CC1C(=O)OC2CC[N+]3(C(C)C)CC=C(COC(=O)C(C)(O)C1(C)O)C23.[Br-] |  |  |  | MIC | BACTEC | H37Rv | ≥12.5 µg/mL
CCCCCOc1ccc(NC(=O)OC(C)CN2CCCCC2)cc1 |  |  |  | MIC |  | My 331/88 | 32 µM
O=C(O)c1cccnn1 |  |  | 12.5 µg/mL | inhibition | BACTEC | H37Rv | 1%
N#Cc1c(-c2ccc(F)cc2)nc(N2CCc3ccccc3C2)[nH]c1=O |  |  |  | MIC |  | H37Ra | >50 µg/mL
COC(=O)[C@]1(C)CCC[C@]2(C)c3ccc(C(C)C)cc3C(=O)C[C@@H]12 |  |  |  | MIC bound | BACTEC | H37Rv | >12.5 µg/mL
CO[C@H]1/C=C/O[C@@]2(C)Oc3c(C)c(O)c4c(O)c(c(/C=N/N5CCN(C)CC5)c(O)c4c3C2=O)NC(=O)/C(C)=C\C=C\[C@H](C)[C@H](O)[C@@H](C)[C@@H](O)[C@@H](C)[C@H](O)[C@@H]1C |  |  |  | MIC |  | H37Rv | 0.05 µg/mL
Cc1c(S(=O)(=O)c2ccccc2)[n+](=O)c2cc(F)c(F)cc2n1[O-] |  |  | 6.25 µg/mL | inhibition |  | H37Rv | 27%
CC(=O)NCC(=O)N1CCN(c2ccc(N3C[C@H](Cn4ccnn4)OC3=O)cc2F)CC1 |  |  |  | MIC | visual reading | H37Rv | >54 µM
COc1ccc(C(=O)/C=C/c2ccc(F)cc2)cc1F | 14 d |  |  | MIC | MTT | H37Rv | 128 µg/mL
N/C(=N/N=C/c1ccccc1)c1ccccn1 |  |  |  | MIC |  | 1454 (THC-resistant) | 64 µg/mL
O=C1c2ccccc2C(=O)c2cc(C[P+](c3ccccc3)(c3ccccc3)c3ccccc3)ccc21 |  | Multidrug-resistant |  | MIC | resazurin | FJ05189 | 1 µg/mL
CC(N=c1cc2n(-c3ccc(Cl)cc3)c3ccccc3nc-2cc1Nc1ccc(Cl)cc1)c1ccccc1 |  |  |  | MIC |  | PAS-R | 0.2 µg/mL
N/C(=N/N=C/c1ccccc1Cl)c1ccccn1 |  |  |  | MIC |  | 1454 (THC-resistant) | 16 µg/mL
CO[C@H]1/C=C/O[C@@]2(C)Oc3c(C)c(O)c4c(O)c(c(/C=N/N5CCOCC5)c(O)c4c3C2=O)NC(=O)/C(C)=C\C=C\[C@H](C)[C@H](O)[C@@H](C)[C@@H](O)[C@@H](C)[C@H](OC(C)=O)[C@@H]1C |  |  |  | MIC |  | H37Rv | 0.2 µg/mL
CCCCOc1ccccc1NC(=O)OC(C)CN1CCCCC1 |  |  |  | MIC |  | My 331/88 | 62.5 µM
COc1c2c(c(OC)c3ccccc13)CN(c1ccccc1)C(=N)C2 |  | Lux |  | MIC | luminescence | H37Rv | 21.49 µM
O=C(/C=C/c1ccc(F)cc1)c1ccc(F)cc1 | 21 d |  |  | MIC | MTT | H37Rv | 64 µg/mL
CCCCOc1ccccc1NC(=O)OCCN1CCCCC1 |  |  |  | MIC |  | My 331/88 | 250 µM
CO[C@H]1/C=C/O[C@@]2(C)Oc3c(C)c(O)c4c(O)c(c5c(c4c3C2=O)NC2(CCN(CC(C)C)CC2)N=5)=NC(=O)/C(C)=C\C=C\[C@H](C)[C@H](O)[C@@H](C)[C@@H](O)[C@@H](C)[C@H](OC(C)=O)[C@@H]1C |  |  |  | MIC |  | 1 isolates (Ser522Trp) | >5 µg/mL
COc1ccc(-c2nc(N3CCN(C)CC3)[nH]c(=O)c2C#N)cc1 |  |  |  | MIC |  | H37Ra | >50 µg/mL
Cc1cc(=O)c2cc(N=Cc3ccc([N+](=O)[O-])o3)ccc2o1 |  |  | 6.25 µg/mL | inhibition | resazurin | H37Rv | 12%
Cc1ccc2c(c1)N(CCC(C)C)C(=O)c1ccnnc1O2 |  |  | 12.5 µg/mL | inhibition | BACTEC | H37Rv | 5%
Cc1ccc(/C=N/N=C(/N)c2ccccn2)c(C)c1 |  |  |  | MIC |  | 1062 (THC-resistant) | 32 µg/mL
Cc1ccc2c(c1)[n+](=O)c(S(=O)(=O)c1ccccc1)c(C)n2[O-] |  |  | 6.25 µg/mL | inhibition |  | H37Rv | 79%
CCCCCCCOc1ccccc1NC(=O)OC(COCC)CN1CCCCC1 |  |  |  | MIC |  | My 331/88 | 62.5 µM
O=[n+]1c(Sc2ccccc2)c(CBr)n([O-])c2cc(Cl)ccc21 |  |  | 6.25 µg/mL | inhibition |  | H37Rv | 96%
CCCN(CCC)/N=C/c1c2c(O)c3c(O)c(C)c4c(c3c1O)C(=O)[C@@](C)(O/C=C/[C@H](OC)[C@@H](C)[C@@H](OC(C)=O)[C@H](C)[C@H](O)[C@H](C)[C@@H](O)[C@@H](C)/C=C/C=C(/C)C(=O)N2)O4 |  |  |  | MIC |  | H37Rv | 0.05 µg/mL
CCCCCN1C(=O)c2cc(Cl)nnc2Oc2ccc3ccccc3c21 |  |  |  | EC50 | BACTEC | H37Rv | <12.5 µg/mL
CC(C)[C@H]1C(=O)OC[C@@H](NC(=O)c2cnc3ccccc3n2)C(=O)N[C@@H](C)C(=O)N(C)[C@@H]2CSSC[C@H](C(=O)N1C)N(C)C(=O)[C@H](C)NC(=O)[C@H](NC(=O)c1cnc3ccccc3n1)COC(=O)[C@H](C(C)C)N(C)C2=O |  |  |  | MIC |  | KM-R | 0.8 µg/mL
N#Cc1c(-c2ccc(F)cc2)nc(NCCN2CCOCC2)[nH]c1=O |  |  |  | MIC |  | H37Ra | >50 µg/mL
O=C1c2cc(Cl)nnc2Oc2ccc3ccccc3c2N1CCCC1CCCCC1 |  |  |  | EC50 | BACTEC | H37Rv | >12.5 µg/mL
O=C1C(=O)N(C23CC4CC(CC(C4)C2)C3)C(=S)N1c1ccccc1 |  |  | 12.5 µg/mL | inhibition | BACTEC | H37Rv | 69%
CO[C@H]1/C=C/O[C@@]2(C)Oc3c(C)c(O)c4c(O)c(c(C=O)c(O)c4c3C2=O)NC(=O)/C(C)=C\C=C\[C@H](C)[C@H](O)[C@@H](C)[C@@H](O)[C@@H](C)[C@H](OC(C)=O)[C@@H]1C |  |  |  | MIC |  | H37Rv | 0.1 µg/mL
CCN(CC)Cc1cc(C(C)(C)C)cc(-c2ccccc2)c1O |  |  |  | MIC bound | BACTEC | H37Rv | >12.5 µg/mL
CCCCOc1cccc(NC(=O)OCCN2CCCCC2)c1 |  |  |  | MIC |  | My 331/88 | 62.5 µM
COc1ccccc1/C=N/N=C(/N)c1ccccn1 |  |  |  | MIC |  | 1454 (THC-resistant) | 64 µg/mL
O=C(NCC(=O)N1CCN(c2ccc(N3C[C@H](Cn4ccnn4)OC3=O)cc2F)CC1)C1=CC=C([N+](=O)[O-])C1 |  | Rifampicin-resistant |  | MIC | broth dilution / visual reading | SRI 1367 | 0.46 µM
Cc1ccc(N2P(N(C)C)N(c3ccc(C)cc3)P2(=O)N(C)C)cc1 |  |  |  | MIC bound | BACTEC | H37Rv | >12.5 µg/mL
CN(C)c1ccc(-c2nc(NCCN3CCOCC3)[nH]c(=O)c2C#N)cc1 |  |  |  | MIC |  | H37Ra | >50 µg/mL
O=C(/C=C/c1c(F)cccc1Cl)c1ccc(F)cc1 | 21 d |  |  | MIC | resazurin | H37Rv | 64 µg/mL
O=c1cc(O)c2c(ccc3ccccc32)[nH]1 |  |  |  | MIC bound | BACTEC | H37Rv | >6.25 µg/mL
CCCCCOc1ccc(NC(=O)OCCN2CCCCC2)cc1 |  |  |  | MIC |  | My 331/88 | 32 µM
O=C(/C=C/c1ccccc1)c1ccc(F)cc1 | 21 d |  |  | MIC | resazurin | H37Rv | 32 µg/mL
COC(=O)C12C=CC(C(=O)OC)(CC1)n1c(=O)n(-c3ccccc3)c(=O)n12 |  |  |  | MIC bound | resazurin | H37Rv | >6.25 µg/mL
CCCN(CCC)/N=C/c1c2c(O)c3c(O)c(C)c4c(c3c1O)C(=O)[C@@](C)(O/C=C/[C@H](OC)[C@@H](C)[C@@H](O)[C@H](C)[C@H](O)[C@H](C)[C@@H](O)[C@@H](C)/C=C/C=C(/C)C(=O)N2)O4 |  |  |  | MIC |  | H37Rv | 0.05 µg/mL
CCCCCC(/C=N/NC(=O)c1ccc[n+](C)c1)=C\c1ccccc1.Cc1ccc(S(=O)(=O)[O-])cc1 |  |  |  | MIC bound | BACTEC | H37Rv | >12.5 µg/mL
N/C(=N/N=C/c1ccccc1Br)c1ccccn1 |  |  |  | MIC |  | 1454 (THC-resistant) | 16 µg/mL
O=c1c(-c2ccc(O)cc2)coc2cc(O)cc(O)c12 |  |  | 12.5 µg/mL | inhibition | BACTEC | H37Rv | 2%
CCCCCOc1cccc(NC(=O)OC(C)CN2CCCCC2)c1 |  |  |  | MIC |  | My 331/88 | 16 µM
CN(C)c1ccc2[nH]c3c(C(=O)O)cc(=O)c(=O)c=3oc2c1 |  |  | 12.5 µg/mL | inhibition | BACTEC | H37Rv | -11%
O=C(/C=C/c1ccccc1)c1ccc(O)cc1 | 21 d |  |  | MIC | MTT | H37Rv | 32 µg/mL
CO[C@H]1/C=C/O[C@@]2(C)Oc3c(C)c(O)c4c(O)c(c(CN5CCCC5)c(O)c4c3C2=O)NC(=O)/C(C)=C\C=C\[C@H](C)[C@H](O)[C@@H](C)[C@@H](O)[C@@H](C)[C@H](OC(C)=O)[C@@H]1C |  |  |  | MIC |  | H37Rv | 0.05 µg/mL
COc1ccc(-c2cc3cc(CCCOC4OC(COC5OCC(O)C(O)C5O)C(O)C(O)C4O)cc(OC)c3o2)cc1OC |  |  |  | MIC bound | BACTEC | H37Rv | >12.5 µg/mL
CCCCCOc1cccc(NC(=O)OC(COCC)CN2CCCCC2)c1 |  |  |  | MIC |  | My 331/88 | 32 µM
CCOc1cc2c(cc1F)n([O-])c(C)c(Sc1ccccc1)[n+]2=O |  |  | 6.25 µg/mL | inhibition |  | H37Rv | 19%
COc1c2c(c(OC)c3ccccc13)CN(c1ccc(Cl)cc1)C(=N)C2 |  | Lux |  | MIC | luminescence | H37Rv | 10.4 µM
Cc1[nH]c2ccc(N(C)C)cc2c(=O)c1CN1CCOCC1 |  |  | 12.5 µg/mL | inhibition | BACTEC | H37Rv | 1%
CN(C)c1ccc(-c2nc(NCCO)[nH]c(=O)c2C#N)cc1 |  |  |  | MIC |  | H37Ra | >50 µg/mL